Here are results for 1 substance from US8034899B2, “HIV fusion inhibitor peptides with improved biological properties” (priority 2006, dated 2011).

Holding throughout (type): cell-based, HIV
In one series the test system is 584.000060. The series is described as follows: In vitro resistance selection in MT2 cells, cMAGI susceptibility, isolate 584.000060. From the text: (§1) Assessment of biological properties included measurement of antiviral activity against HIV-1 strains. […] These assays score for reduction of infectious virus titer employing the indicator cell lines MAGI or the CCR5 expressing derivative cMAGI. Both cell lines exploit the ability of HIV-1 tat to transactivate the expression of a β-galactosidase reporter gene driven by the HIV-LTR. The β-gal reporter has been modified to localize in the nucleus and can be detected with the X-gal substrate as intense nuclear staining within a few days of infection. […] The number of infected cells for each control and peptide dilution was determined with the CCD-imager, and then the IC50 was calculated (expressed in μg/ml).
(§2) MT2 cells were infected with virus isolates (IIIB, 030, 060 and 098) and cultured in increasing concentrations of SEQ ID NO:2 (enfuvirtide) or SEQ ID NO:9 to select for resistance. […] Cultures were monitored for cytopathic effect (CPE) using standard techniques and when maximal CPE was achieved, a small aliquot of virus was used for subsequent rounds of infection. […] Peptide-free virus stocks were characterized for gp41 genotypic changes by dideoxy sequencing chemistries and phenotypic susceptibility was determined using a cMAGI infectivity assay.

The next series has as its system 584.000030. The series is described as follows: In vitro resistance selection in MT2 cells, cMAGI susceptibility, isolate 584.000030.
Description: as §1, §2

Series [1] relates to virus isolates (IIIB, 030, 060 and 098). Nature of the series: In vitro resistance selection, geometric mean over the four isolates. The text has this:
MT2 cells were infected with virus isolates (IIIB, 030, 060 and 098) and cultured in increasing concentrations of SEQ ID NO:2 (enfuvirtide) or SEQ ID NO:9 to select for resistance. The initial peptide concentration was approximately 2 times the IC50 of each peptide against the corresponding wild type isolate. Peptide concentrations were maintained by adding fresh peptide every 1-3 days. Cultures were monitored for cytopathic effect (CPE) using standard techniques and when maximal CPE was achieved, a small aliquot of virus was used for subsequent rounds of infection. Peptide concentrations were increased 2 to 4-fold depending on the length of time in culture when compared to the growth rate of wild type virus. During the course of selection, peptide-free virus stocks were also collected. Peptide-free virus stocks were characterized for gp41 genotypic changes by dideoxy sequencing chemistries and phenotypic susceptibility was determined using a cMAGI infectivity assay.

A further series relates to IIIB. The series is described as follows: In vitro resistance selection in MT2 cells, cMAGI susceptibility, isolate IIIB. To be noted: starting isolate IIIB, gp41 genotype.
Description: as §1, §2

For some of these results: The amount applied is not stated for every result.

As to enfuvirtide, the “Days in Culture” value with 584.000060 (starting isolate 584.000060) worked out at 46 days; in the series with 584.000030 (starting isolate 584.000030), 46 days; in series [1] (Geometric Mean of four isolates), 49 days. Further, the “# of Mutations Acquired” value with 584.000060 (starting isolate 584.000060, gp41 genotype) is 2; with 584.000030 (starting isolate 584.000030, gp41 genotype), 2; in series [1], 1.7; in the series with IIIB, 2.
